Results published in PMC2790717 (Biochemical and Biophysical Research Communications, 2007).

Molecular target: HIV-1 gp41 fusion peptide N36 (N-terminal heptad repeat peptide) (HIV-1, N-terminal acetyl (Ac-); C-terminal amide (-NH2))
Assay: native gel or EMSA

B1: HIV-1 gp41 fusion peptide C34 (C-terminal heptad repeat peptide) (peptide)
peptide: not shown
modifications: N-terminal acetyl (Ac-); C-terminal amide (-NH2)
Question: Does B1 bind?
Answer: binds
